A mixed list of measured activities; the numbers were collected in NIAID ChemDB.

All rows: target-level tests

ICn is the concentration giving n% inhibition. Blank or dashed fields: not listed here. Rows are shuffled and stem from different studies. Percent inhibition refers to the dose given; in toxicity tests it is the harm to the cells. Two numbers with a dash give a range or band.

| SMILES | target | read-out | organism | tested at | result |
|---|---|---|---|---|---|
| CNC(=O)c1c(-c2ccc(F)cc2)oc2cc(N(C)S(C)(=O)=O)c(OCc3nnnn3C)cc12 | Nonstructural protein 5B | IC50 | Hepatitis C virus |  | ≤0.5 µM |
| Fc1ccc(-c2cnc3c(-c4nn[nH]n4)cnn3c2C2CCCCC2)cc1F | RNA-dependent RNA polymerase | IC50 | Hepatitis C virus |  | <1 µM |
| O=C(Nc1ccccc1-c1nc(C(=O)O)c(O)c(=O)[nH]1)c1cc2ccccc2s1 | HCV polymerase | IC50 | Hepatitis C virus |  | <100 µM |
| COc1nc(Nc2ccc3[nH]ncc3c2)nc(N2CCCC2)n1 | DNA polymerase | inhibition | Hepatitis B virus | 0.1 µg/mL | 23% |
| CCOc1ccc(-c2ccc(OC)cc2-c2ccc3cc(-c4nc5cc(C(=O)O)ccc5n4C4CCCCC4)ccc3n2)cc1 | NS5B polymerase | inhibition | Hepatitis C virus | 33 µM | 100% |
| COc1ccc(-c2cnc3c(C(=O)O)cnn3c2C2CCCCC2)cc1 | RNA-dependent RNA polymerase | IC50 | Hepatitis C virus |  | 1–10 µM |
| Cc1cc(C)n2ncc(-c3nc(C(=O)O)c(O)c(=O)[nH]3)c2n1 | HCV polymerase | IC50 | Hepatitis C virus |  | <100 µM |
| CC(=O)N(Cc1cccc(Cl)c1)c1cc(-c2ccccc2)sc1C(=O)O | NS3 ATPase | IC50 | Hepatitis C virus |  | >20 µM |
| COC(=O)c1nc(-c2cscc2NC(=O)NS(=O)(=O)c2ccccc2)[nH]c(=O)c1O | HCV polymerase | IC50 | Hepatitis C virus |  | <50 µM |
| CNC(=O)c1c(-c2ccc(F)cc2)oc2cc(N(CC(C)O)S(C)(=O)=O)c(O)cc12 | Nonstructural protein 5B | IC50 | Hepatitis C virus |  | ≤0.5 µM |
| Cc1nc(-c2ccc(Cl)cc2)sc1-c1ccc2cc(-c3nc4cc(C(=O)O)ccc4n3C3CCCCC3)ccc2n1 | NS5B polymerase | inhibition | Hepatitis C virus | 33 µM | 100.7% |
| Cc1ccccc1S(=O)(=O)Nc1cc(-c2cccc(Cl)c2)sc1C(=O)O | NS3 ATPase | IC50 | Hepatitis C virus |  | <5 µM |
| CC(NC(=O)Nc1cscc1-c1nc(C(=O)O)c(O)c(=O)[nH]1)c1ccc(OC(C)(C)C)cc1 | HCV polymerase | IC50 | Hepatitis C virus |  | <25 µM |
| COC(=O)c1cc2nc(-c3cccs3)cc(C(F)(F)F)n2n1 | RNA-dependent RNA polymerase | IC50 | Hepatitis C virus |  | >10 µM |
| O=C(O)c1nc(-c2ccccc2NS(=O)(=O)c2ccc(Cl)c(Cl)c2)[nH]c(=O)c1O | HCV polymerase | IC50 | Hepatitis C virus |  | <100 µM |
| O=C(O)c1ccc2c(c1)nc(-c1ccc3nc(-c4cccc(OCC(=O)N5CCCC5)c4)ccc3c1)n2C1CCCCC1 | NS5B polymerase | inhibition | Hepatitis C virus | 33 µM | 95.76% |
| O=C(O)c1sc(-c2ccccc2)cc1N(Cc1ccccc1)C(=O)C1CC1 | NS3 ATPase | IC50 | Hepatitis C virus |  | <5 µM |
| O=C(O)c1ccc2c(c1)nc(-c1ccc3nc(-c4ccccc4)cc(Sc4ccccc4)c3c1)n2C1CCCCC1 | NS5B polymerase | inhibition | Hepatitis C virus | 33 µM | 96.33% |
| c1ccc(COc2ccc(-c3cnc4c(-c5nn[nH]n5)cnn4c3C3CCCCC3)cc2)nc1 | RNA-dependent RNA polymerase | IC50 | Hepatitis C virus |  | <1 µM |
| O=C(O)c1sc(-c2ccc(F)cc2)cc1NS(=O)(=O)c1ccc(F)cc1F | NS3 ATPase | IC50 | Hepatitis C virus |  | <5 µM |
| O=C(O)c1ccc(-c2ccc(Cl)cc2)c(-c2ccc3cc(-c4nc5cc(C(=O)O)ccc5n4C4CCCCC4)ccc3n2)c1 | NS5B polymerase | inhibition | Hepatitis C virus | 100 µM | 102% |
| Cc1ccc(C(=O)N(Cc2cccc(Cl)c2)c2cc(-c3ccccc3)sc2C(=O)O)cc1 | NS3 ATPase | IC50 | Hepatitis C virus |  | <5 µM |
| O=C(Cc1ccccc1)Nc1ccsc1-c1nc(C(=O)O)c(O)c(=O)[nH]1 | HCV polymerase | IC50 | Hepatitis C virus |  | <25 µM |
| CNC(=O)c1c(-c2ccc(C)c(F)c2)oc2ccc(OC)cc12 | Nonstructural protein 5B | IC50 | Hepatitis C virus |  | ≤0.5 µM |
| O=C(O)c1ccc2c(c1)nc(-c1ccc3nc(-c4cc(F)ccc4-c4ccc(Cl)cc4)ccc3c1)n2C1CCCCC1 | NS5B polymerase | inhibition | Hepatitis C virus | 33 µM | 101% |
| CCOC(=O)N1CCN(c2nc(Nc3ccc4[nH]ncc4c3)nc(OC)n2)CC1 | Nonstructural protein 5B | inhibition | Hepatitis C virus | 10 µg/mL | 44% |
| FC(F)(F)Oc1ccc(COc2cccc(-c3cnc4c(-c5nn[nH]n5)cnn4c3C3CCCCC3)c2)cc1Cl | RNA-dependent RNA polymerase | IC50 | Hepatitis C virus |  | 1–10 µM |
| CCC(=O)N(Cc1ccc(C(F)(F)F)cc1)c1cc(-c2ccccc2)sc1C(=O)O | NS3 ATPase | IC50 | Hepatitis C virus |  | 5–20 µM |
| O=C(O)c1cc2nc(-c3ccccc3)cc(=O)n2[nH]1 | RNA-dependent RNA polymerase | IC50 | Hepatitis C virus |  | >10 µM |
| CC(=O)Nc1ccccc1COC(=O)Nc1ccsc1-c1nc(C(=O)O)c(O)c(=O)[nH]1 | HCV polymerase | IC50 | Hepatitis C virus |  | <25 µM |
| CNC(=O)c1cnn2c(C3CCCCC3)c(-c3ccc(OCc4ccccc4)cc3)cnc12 | RNA-dependent RNA polymerase | IC50 | Hepatitis C virus |  | >10 µM |
| CNC(=O)c1c(-c2ccc(F)cc2)oc2cc(N(C)S(C)(=O)=O)c(OCC(=O)c3ccc(OC)cc3)cc12 | Nonstructural protein 5B | IC50 | Hepatitis C virus |  | ≤0.5 µM |
| Cc1ccc(C(=O)N(c2cc(-c3ccccc3)sc2C(=O)O)C(C)C)cc1 | NS3 ATPase | IC50 | Hepatitis C virus |  | <5 µM |
| CNC1N=C(OC)N=C(Nc2ccc3cn[nH]c3c2)N1CN | DNA polymerase | IC50 | Hepatitis B virus |  | 0.1–1 µg/mL |
| Cc1oc2ccc(OCc3ccccc3)cc2c1-c1ccc2cc(-c3nc4cc(C(=O)O)ccc4n3C3CCCCC3)ccc2n1 | NS5B polymerase | inhibition | Hepatitis C virus | 100 µM | 96.03% |
| CCOC(=O)C1=CN(N2CCN(c3nc(Nc4ccc5cn[nH]c5c4)nc(OC)n3)CC2)C(SC)N=C1 | DNA polymerase | IC50 | Hepatitis B virus |  | 0.1–1 µg/mL |
| COc1ccc(-c2nc3ccc(-c4nc5cc(C(=O)O)ccc5n4C4CCCCC4)cc3nc2-c2ccc(OC)cc2)cc1 | NS5B polymerase | inhibition | Hepatitis C virus | 100 µM | 98.75% |
| COc1ccc(-c2cnc3c(C#N)cnn3c2-c2ccc(OC)cc2)cc1 | RNA-dependent RNA polymerase | IC50 | Hepatitis C virus |  | >10 µM |
| COc1nc(NCCc2c[nH]c3ccccc23)nc(Nc2ccc3cn[nH]c3c2)n1 | DNA polymerase | inhibition | Hepatitis B virus | 1 µg/mL | 49% |

3 of the rows above, restated:

SMILES	target	read-out	organism	tested at	result
Cc1ccc(C(=O)N(c2cc(-c3ccccc3)sc2C(=O)O)C(C)C)cc1	NS3 ATPase	IC50	Hepatitis C virus		<5 µM
COc1ccc(-c2cnc3c(C#N)cnn3c2-c2ccc(OC)cc2)cc1	RNA-dependent RNA polymerase	IC50	Hepatitis C virus		>10 µM
Cc1cc(C)n2ncc(-c3nc(C(=O)O)c(O)c(=O)[nH]3)c2n1	HCV polymerase	IC50	Hepatitis C virus		<100 µM